Where a name gives a salt, the structure may show the parent alone.
What was measured:
HIV-1IIIB [1] = assay: Inhibition experiment for cytopathic effect (CPE) of HIV-1IIIB, syncytia formation in C8166 cells; format: cell-based; conditions: TI=CC50/EC50, EC50 from cpe experiment
Procedure: (§1) Human T lymphocytic series C8166 and HIV-1 experiment strain HIV-1IIIB are both from National Institutes of Health (NIH); cells are cultured in the RPMI-1640 complete culture medium containing 10% fetal bovine serum. HIV-1IIIB is prepared by using a conventional method, titration and calculation of TCID 50 of viruses are performed. Virus stock solution is subpackaged and stored at −70° C. Cells and viruses are cryopreserved and recovered according to conventional methods.
7. Inhibition Experiment for Cytopathic Effect (CPE) of HIV-1IIIB
8×10^5/ml C8166 cells were inoculated onto the 96-well cell culture plate containing 100 μl/well drug subjected to gradient multiple proportion dilution in an amount of 50 μl/well, and then 50 μl HIV-1IIIB was added to dilute the supernatant, 1300 TCID 50/well. 3 repetition wells were set. Meanwhile, normal cell control wells without drugs were set. TDF and dolutegravir were positive drug controls. Culture was performed for 3 days under the conditions of 37° C. and 5% CO2, and syncytia formation were counted under the inverted microscope (100×). EC50 (50% Effective Concentration) is the concentration of the drug when 50% of syncytia formation is inhibited.
(§2) According to experiment results, fitted curves are drawn using Origin2016, the 50% effective concentrations (EC50) of the samples inhibiting viruses, 50% cell growth inhibition concentrations (CC50) and TI (therapeutic index) value against HIV-1 activity are calculated based on Reed & Muench method, and the TI value is TI=CC50/EC50.
2. HIV-1 cytopathic cell inhibition rate (%)=(1−experiment well syncytia number/control well syncytia number)×100

HIV-1IIIB [2] = assay: Inhibition of replication in HIV-1IIIB acute infectious C8166 cells (p24 antigen capture ELISA); format: cell-based; conditions: TI=CC50/EC50, EC50 from P24 experiment
Procedure: as §1
5. Measurement of HIV-1 p24 Antigen with p24 Antigen Capture ELISA Method
The 1 μg/plate of anti-mouse IgG Fc antibody was paved at 4° C. for overnight; the plate was sealed with 5% skimmed milk powder 4° C. for overnight; 100 μl/well mouse anti-p24 monoclonal antibody was added at 37° C. for 1 h; 100 μl/well (1:100) diluted rabbit anti-p24 polyclonal antibody (homemade) was added for 1 h at 37° C.; 100 μl/well (1:20000) diluted goat anti-rabbit IgG HRP was added for 1 h at 37° C.; OPD substrate reaction solution was added. After 10 min, 2M sulfuric acid was added to stop the reaction. The OD value was determined by Elx800 ELISA, and the wavelength was measured as 490/630 nm. The inhibition rate and EC50 of the drug on the p24 antigen replication and expression of HIV-1, namely, the concentration of the drug inhibiting 50% HIV-1 p24 antigen were calculated, namely, the concentration of the drug inhibiting 50% HIV-1 p24 antigen expression was calculated.
8. Inhibition Effect of Samples on Replication in Experiment Strain HIV-1IIIB Acute Infectious C8166 Cells
4×10^5 cells/ml C8166 cells and HIV-1IIIB MOI (multiplicity of infection=0.04) are infected for 2 h at 37° C., the obtained mixture is washed three times with PBS to remove free virus ions, 100 μl of cells are inoculated onto the 96-well plate containing 100 μl of to-be-detected compounds having different dilutions and cultured for 3 days under the conditions of 37° C. and 5% CO2. The cultural supernatant is centrifuged and then collected, and finally lysed and inactivated with 0.5% Triton X-100. The inhibition effect of the drug on HIV-1 replication is detected by using the p24 antigen capture ELISA method.
as §2
3. HIV-1 p24 antigen expression inhibition rate (%)=(1−experiment well OD value/control well OD value)×100

Row | SMILES | Therapeutic index TI (HIV-1IIIB [1]) | Therapeutic index TI (HIV-1IIIB [2])
1 | CC(C)OC(=O)OCOP(=O)(CO[C@H](C)Cn1cnc2c(N)ncnc21)OCOC(=O)OC(C)C [TDF, tenofovir disoproxil fumarate, reference compound] | 13029.85 | 19472.12
2 | C[C@@H]1CCO[C@H]2Cn3cc(C(=O)NCc4ccc(F)cc4F)c(=O)c(O)c3C(=O)N12 [Dolutegravir, reference compound] | 12464.48 | 25285.71
3 | CC(C)C1CSC2Cn3cc(C(=O)NCc4ccc(F)cc4F)c(=O)c(O)c3C(=O)N21 (stereo not drawn) [Compound 5] | 99567.90 | 85770.50
4 | CC[C@@H]1CSC2Cn3cc(C(=O)NCc4ccc(F)cc4F)c(=O)c(O)c3C(=O)N21 (stereo partly drawn) [Compound 3] | 645083.10 | 531374.79
5 | C[C@@H]1CCSC2Cn3cc(C(=O)NCc4ccc(F)cc4F)c(=O)c(O)c3C(=O)N21 (stereo partly drawn) [Compound 18] | 1380633.73 | 1265674.33
6 | C[C@H]1CSC2Cn3cc(C(=O)NCc4ccc(F)cc4)c(=O)c(O)c3C(=O)N21 (stereo partly drawn) [Compound 66] | 266489.71 | 240306.37
7 | O=C(NCc1c(F)cc(F)cc1F)c1cn2c(c(O)c1=O)C(=O)N1C(C2)S[C@@H]2CC[C@H]1C2 (stereo partly drawn) [Compound 34] | 576365.66 | 542355.51
8 | C[C@H]1CSC2Cn3cc(C(=O)NCc4ccc(F)cc4F)c(=O)c(O)c3C(=O)N21 (stereo partly drawn) [Compound 2] | 723499.36 | 6273353.27
9 | CC(C)[C@H]1CSC2Cn3cc(C(=O)NCc4ccc(F)cc4F)c(=O)c(O)c3C(=O)N21 (stereo partly drawn) [Compound 6] | 124340.07 | 108766.70
10 | C[C@@H]1CSC2Cn3cc(C(=O)NCc4ccc(F)cc4F)c(=O)c(O)c3C(=O)N21 (stereo partly drawn) [Compound 1] | 108973.00 | 101255.11
11 | CC[C@H]1CSC2Cn3cc(C(=O)NCc4ccc(F)cc4F)c(=O)c(O)c3C(=O)N21 (stereo partly drawn) [Compound 4] | 645083.10 | 531374.79
12 | O=C(NCc1ccc(F)cc1F)c1cn2c(c(O)c1=O)C(=O)N1C(C2)SC[C@@H]1Cc1ccccc1 (stereo partly drawn) [Compound 12] | 54405.86 | 48558.34
13 | CC(C)(C)[C@H]1CSC2Cn3cc(C(=O)NCc4ccc(F)cc4F)c(=O)c(O)c3C(=O)N21 (stereo partly drawn) [Compound 8] | 36786.07 | 33714.91
14 | CC(C)C[C@H]1CSC2Cn3cc(C(=O)NCc4ccc(F)cc4F)c(=O)c(O)c3C(=O)N21 (stereo partly drawn) [Compound 20] | 146569.64 | 123467.60
15 | O=C(NCc1ccc(F)cc1F)c1cn2c(c(O)c1=O)C(=O)N1C(C2)SC[C@@H]1c1ccccc1 (stereo partly drawn) [Compound 10] | 11822.00 | 10855.77

Source: patent US11365207B2, “Sulfur-containing polycyclic-hydroxypyridone carboxamide analog against HIV” (priority 2018, dated 2022)
